In the supplement of paper PMC9931576:
Where a chain is given by its changes, count along the chain named. Human monoclonal antibodies against the spike receptor-binding domain (heavy:light variable regions). IC50 against pseudoviruses bearing the spike of naturally observed variants; lower = stronger; >10 µg/ml means not reached at the top dose. No active / inactive call. The stated detection limit is 0.0005 µg/ml; values near or below 0.001 µg/ml lie at the floor of the assay.

B1: BD56-1851 (protein)
chain 1: QVQLVESGGGVVQPGRSLRLSCAASGFTLSSFAITWVRQAPGKGLEWVAVISYDGTNKYYADSVKDRFTVSRDNSKNTLHLQMNSLRAEDTAVYYCARDMYPLNAYYYGMDVWGQGTTVTVSS
chain 2: DIQLTQSPSSLSASVGDRVTITCRASQGISTYLAWYQQKPGKAPKLLIYSASTLQSGVPSRFSGSGSGTDFTLTISSLQPEDFASYYCQQLNSDPRTFGQGTKLEIK
B2: BD56-1848 (protein)
chain 1: QVQVVESGGGVVQPGRSLRLSCAASGFTFSSYALHWVRQAPGKGLEWVAFISFNGRNKYYADSVQGRFTISRDNSRTTLYLQMNSLRAEDTAVYYCARPPWGVDSGSYSEAEMYFDSWGQGTLVTVSS
chain 2: QSVLTQPPSVSGAPGQRVTISCTGSSSNIGAGYDVHWYQQLPGTAPKLLIYGNTNRPSGVPDRFSGSKSGTSASLAITGLLAEDEADYYCQSYDSSLSGPNWVFGGGTKLTVL
B3: BD56-1867 (protein)
chain 1: QVQLVESGGGVVQPGRSLRLSCATSGFSFSTYSLHWVRQAPGKGLEWVTFISYSGRNKYYADSVKGRFTISRDNSKNTLYLHMNSLRPDDTAMYYCARPPWGIDSGSYSEAEMYFDYWGQGTLVTVSS
chain 2: B2 chain 2 with Q40H, T54D, N55H, K68R, L81Q, G99V, N101S
B4: BD56-1850 (protein)
chain 1: QVQLVQSGSEVKKPGSSVKVSCKASGDTFSKYAITWVRQAPGQGLEWMGRIIPMFAMANYAQKFQGRVTIIADKSTSTAYMELSSLRSEDTAMYFCATSAYQYGGGGHYLDFWGQGTLVTVSS
chain 2: EIVLTQSPGTLSLSPGERATLSCRASQSISGTYLHWYQQKPGQAPRLLIYGATSRATGIPDRFSGSGSGTDFTLTISRLEPEDFAVYYCQQCHSSPRTFGQGTKVEIK
B5: BD56-1852 (protein)
chain 1: QVQLVQSGAEVKKPGSSVKVSCKTSGDTFSRFAITWVRQAPGQGLEWMGRIIPMFGMANYAQKFQGRVTFTAETSTNTAYLELSSLRSEDTAIYYCATSAYYYESSGYYIDKWGQGTLVTVSS
chain 2: B4 chain 2 with S28T, I29V, S30D, G31N, T32N, H35A, T53S, Q90H, C92Y, S94N
B6: BD56-1864 (protein)
chain 1: EVQLVESGGGSVQPGGSLTLSCAASGFTFRHYDMHWVRQRPGKGLEWVSTIGTAGDTYYPDSVKGRFTISRENAKNSLYLQMNSLRDGDTAVYYCARAQYSSNLYPRLDAWGQGTLVTVSS
chain 2: DIQMTQSPSSLSASVGDRVTITCRASQKISNFLNWYQQKPGKAPKLLIYTASTLQSGVPSRFSGSGSGTDFTLTISSLQPEDFATYSCQQTYSSEWTFGQGTKVEIK
B7: BD56-1835 (protein)
chain 1: EVQLVESGGGLVQPGGSLRLSCAASGFTFSRYYMNWVRQAPGKGLEWVANIKEDGSEKYYVDSVKGRFTISRDNAKNSLFLQMNSLRGEDTAVYYCAGQFWLRGRFDPWGQGTLVTVSS
chain 2: NFMLTQPHSVSGSPGKTVTISCTGSSGSIASNYVQWYQQRPGSAPTTVIFEDNQRPSGVPDRFSGSIDSSSNSASLTISGLKTEDEADYYCQSYDSTNQVFGGGTKLTVL
B8: BD56-1863 (protein)
chain 1: EVQLVESGGGLVHPGGSLRLSCAASGLIVSSNYMTWVRQAPGKGLEWVSLLYAGGSTFYADSVKGRFTISRDNSKNTLFLQMNSLRVEDTAVYYCARGPYPKFDPWGQGTLVTVSS
chain 2: DIQMTQSPSSLSASVGDRVTITCQASQDIRNYINWYQQKPGKAPKLLIYDASNLETGVPSRFSGRGSGTDFTFTISGLQPEDVATYYCQQYDNLPITFGQGTRLEIK
B9: BD56-1833 (protein)
chain 1: QVQLVQSGAEVKKPGSSVKVSCKASGGTFSSYAVSWVRQAPGQGLEWMAGIIPVFGTTYNARKFQGRVTLNADESTSTVYMDLSYLRSDDTAVYYCATHSSGPAASYSYNYYMDVWGKGTTVTVSS
chain 2: QSALTQPASVSGSPGQSITISCTGTSSDVGSYNLVSWYQQHPGKAPKLLIYDVNERPSGVSNRFSGSKSGNTASLTISGLRTEDEAYYYCCSSAGTSTWVFGGGSKLTVL
B10: BD56-1837 (protein)
chain 1: EVQLVESGGGLVQPGRSLRLSCAASGFTFDDYAVHWVRQAPGKGLEWVSGISWNGGIIGYADSVQGRFTISRDNAKKSLYLQMNSLRAEDTALYYCAKAHDYGDYGSEGGFDYWGQGTLVTVSS
chain 2: QSALTQPASVSGSPRQSITISCTGTSSDVGGYNYVSWYQHHPGKAPKLVIYDVNKRPSGISNRFSGSKSGNTASLAISGLQAEDEADYYCSSYTSSSTLVFGGGTKLTVL
B11: BD56-1828 (protein)
chain 1: EVQLVESGGGLVQPGRSLRLSCAGYRFNSENYAMHWVRQAPGKGLEWVSGISWNSGTIGYADSVKGRFIISRDNAKNSLYLHMSSLRVEDTALYYCVKDISMGEGYNFAFDIWGQGTMVTVSS
chain 2: QSVLTQPPSISGAPGRRVTISCTGSSSNIGAGYDVHWYQHLPGTVPRLLIYGNNNRPSGVPDRFSGSRSGTSASLAITGLQAEDEADYYCQSYDSSLGGFVVFGGGTKLTVL
B12: BD56-1855 (protein)
chain 1: QLQLQESGPGLVKPSETLSLTCTVSGGSIRSSSYYWGWIRQPPGKGLEWIGSMYYGGSTHYKPSLKSRVTISVDTSKNQFSLKVTSVTAADTAVYYCATQGWLRGAFDYWGQGTRVTVSS
chain 2: NFMLTQPHSVSESPEKTVTISCTGSGGNIASNYVQWYQQRPGSAPTTVIYEDTQRPSGVPDRFSGSIDSSSNSASLSISGLKTEDEADYYCQSYDVNNHVLFGGGTKLTVL

What was measured:
Assay in all cases: pseudovirus neutralization IC50; higher = weaker neutralization
[1] = biological target: SARS-CoV-2 Omicron BA.1 spike pseudovirus
Description: (§1)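 Single-round VSV luciferase pseudovirus mixed with antibody dilutions for 1 h and put on Huh-7 cells for about a day; IC50 from the dose curve.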

[2] = biological target: SARS-CoV-2 Omicron BA.2 spike pseudovirus
Description: as §1

[3] = biological target: SARS-CoV-2 Omicron BA.2.75 spike pseudovirus
Description: as §1

[4] = biological target: SARS-CoV-2 Omicron BA.5 spike pseudovirus
Description: as §1

[5] = biological target: SARS-CoV-2 Omicron BQ.1.1 spike pseudovirus
Description: as §1

[6] = biological target: SARS-CoV-2 Omicron XBB spike pseudovirus
Description: as §1

[7] = biological target: SARS-CoV-2 early D614G spike pseudovirus
Description: as §1

| Binder | pseudovirus neutralization IC50 [1] [mg/L] | pseudovirus neutralization IC50 [2] [mg/L] | pseudovirus neutralization IC50 [3] [mg/L] | pseudovirus neutralization IC50 [4] [mg/L] | pseudovirus neutralization IC50 [5] [mg/L] | pseudovirus neutralization IC50 [6] [mg/L] | pseudovirus neutralization IC50 [7] [mg/L] |
| --- | --- | --- | --- | --- | --- | --- | --- |
| B1 | 0.00119 | 0.0017 | 0.00266 | 0.00178 | 0.0197 | 0.0194 | 0.00813 |
| B2 | 0.231 | 5.31 | > 10 | 3.91 | > 10 | > 10 | 0.163 |
| B3 | 0.055 | 6.48 | 2.47 | 0.188 | 0.238 | 0.179 | 0.0907 |
| B4 | 0.019 | 0.0214 | 0.00846 | > 10 | > 10 | > 10 | 0.00241 |
| B5 | 0.00524 | 0.00988 | 0.00748 | > 10 | > 10 | > 10 | 0.00221 |
| B6 | > 10 | > 10 | > 10 | > 10 | > 10 | > 10 | 0.0278 |
| B7 | 0.0993 | > 10 | > 10 | > 10 | > 10 | > 10 | 0.0462 |
| B8 | 0.00495 | 0.008 | > 10 | 0.0189 | > 10 | > 10 | 0.0228 |
| B9 | 0.00466 | 0.0062 | 0.00176 | > 10 | > 10 | > 10 | 0.0513 |
| B10 | 0.0451 | 0.0617 | 0.0705 | > 10 | > 10 | > 10 | > 10 |
| B11 | 0.0459 | 0.0842 | 0.0699 | 1.85 | > 10 | > 10 | 0.502 |
| B12 | 1.19 | > 10 | > 10 | > 10 | > 10 | > 10 | 0.699 |
